# Test results published in ChEMBL document CHEMBL4316619 (Bioorg Med Chem Lett, 2019).
# Columns and labels:
# Settings in all cases: dog
# [1] = Selectivity index, ratio of CC50 for cytotoxicity against MDCK cells to EC50 for Influenza A virus (A/Brisbane/10/2007(H3N2)) infected in MDCK cells
# [2] = Selectivity index, ratio of compound effect for cytotoxicity against MDCK cells to IC90 for Influenza A virus A/PR/8/34 (H1N1) infected in MDCK cells
# [3] = Selectivity index, ratio of CC50 for cytotoxicity against MDCK cells to EC50 for Influenza A virus (A/California/7/2009(H1N1)) infected in MDCK cells
# [4] = Selectivity index, ratio of CC50 for cytotoxicity against MDCK cells to EC50 for influenza A virus A/Vietnam/1203/2004 x A/PR/8/34 (H5N1) harboring recombinant NS1 infected in MDCK cells
Compound,Ratio CC50/EC50 [1],Selectivity Index [2],Ratio CC50/EC50 [3],Ratio CC50/EC50 [4]
COc1cc(-c2ccnc3c2c(C)nn3-c2ccc(C(F)(F)F)cc2)ccc1O,2,> 100,38,< 1
Cc1ccc(-n2nc(C)c3c(-c4ccc(O)c(O)c4)c(C#N)c(N)nc32)cc1C,< 1,–,34,< 1
COc1cc(-c2c(C#N)c(N)nc3c2c(C)nn3-c2ccc(F)cc2)cc(OC)c1OC,< 1,–,< 1,< 1
CCOc1cc(-c2c(C#N)c(O)nc3c2c(C)nn3-c2ccc(F)cc2)ccc1O,> 1,–,> 29,> 1
COc1cc(-c2c(C#N)c(N)nc3c2c(C)nn3-c2ccc(F)cc2)ccc1O,5,–,23,7
Cc1nn(-c2ccc(Cl)cc2)c2nc(N)c(C#N)c(-c3ccc(O)c(O)c3)c12,< 1,–,< 1,< 1
